Publication PMC10971446 (Marine Drugs, 2024)

System: ACh-responsive mouse DRG neurons (α3β4 and α6β4 nAChRs)
Assay: Constellation Pharmacology protocol one: ACh-induced calcium influx in DRG neurons
Conditions: 10 μM peptide, 1 mM ACh; of 220 ACh-responsive neurons, six trials; experiment-wide threshold

## CC(C)C[C@@H]1NC(=O)[C@H](CCC(=O)O)NC(=O)[C@@H]2CCCN2C(=O)[C@H](Cc2c[nH]cn2)NC(=O)[C@H](CC(N)=O)NC(=O)[C@H](C(C)C)NC(=O)[C@H](CO)NC(=O)[C@@H]2CSSC[C@H](NC(=O)CNC(=O)[C@@H]3CCC(=O)N3)C(=O)N[C@@H](CSSC[C@@H](C(=O)N[C@@H](Cc3c[nH]c4ccccc34)C(=O)O)NC1=O)C(=O)N[C@@H](CO)C(=O)N[C@@H](Cc1c[nH]cn1)C(=O)N1CCC[C@H]1C(=O)N[C@@H](C)C(=O)N2 [αCtx-AtIA]
  cells with significant block for both αCtx-PeIA and αCtx-AtIA: 104 cells
  cells with significant block with αCtx-PeIA and non-significant block with αCtx-AtIA: 101 cells
